{
  "source": "paper PMC11203576",
  "key": {"[1]": {"biological_target": "SARS-CoV-2 spike protein RBD, original (wild-type), sfGFP fusion (SARS-CoV-2) (UniProt P0DTC2)", "test": "SPR; […] (12.5, 25, 50 or 100 mM) for 30 min at room temperature"}, "[2]": {"biological_target": "SARS-CoV-2 spike protein RBD, Alpha variant, sfGFP fusion (SARS-CoV-2) (UniProt P0DTC2)", "test": "SPR; […] (12.5, 25, 50 or 100 mM) for 30 min at room temperature"}},
  "data": [
    {"substance": "Jacalin (natural protein)", "values": [
      {"measurement": "percent inhibition of binding by 12.5 mM galactose", "setting": "[1]", "value": 60, "unit": "%"},
      {"measurement": "percent inhibition of binding by 12.5 mM galactose", "setting": "[2]", "value": 90, "unit": "%"}
    ]}
  ]
}
